Source: patent publication US20030220338A1, “Fungal efflux pump inhibitors” (priority 2001, published 2003)

Legend:
[1] = tested on: Candida albicans YEM15 (over-expressing the CDR1 and CDR2 pumps); test: Checkerboard / broth microdilution assay, potentiation of fluconazole vs. C. albicans; conditions: for MIC: Candida albicans, 48 h; for MPC8 = concentration of efflux pump inhibitor necessary to reduce the fluconazole MIC 8-fold: in combination with fluconazole, strain YEM15
[2] = tested on: C. glabrata YEM19 (over-expressing the CgCDR1 and CgCDR2 pumps); test: Checkerboard / broth microdilution assay, potentiation of fluconazole vs. C. glabrata; conditions: for MIC: Nakaseomyces glabratus, 48 h; for MPC8: in combination with fluconazole, strain YEM19

| SMILES | MIC [1] [µg/mL] | MPC8 = concentration of efflux pump inhibitor necessary to reduce the fluconazole MIC 8-fold [1] | MIC [2] [µg/mL] | MPC8 [2] [µg/mL] |
| --- | --- | --- | --- | --- |
| COc1ccc(N(C(=O)Nc2ccc(F)cc2)C(C)c2nc3ccccc3c(=O)n2N2CCN(C(=O)CC#N)CC2)c(OC)c1 (stereo not drawn) [Compound 142] | > 32 | 2 µg/mL | > 32 | 4 |
| COc1ccc(N(C(=O)Nc2ccc(F)cc2)C(C)c2nc3ccccc3c(=O)n2N2CCN(C(=O)CN3CCCC3)CC2)c(OC)c1 (stereo not drawn) [Compound 143] | > 32 | 4 µg/mL | > 32 | 1 |
| COc1ccc(N(C(=O)Nc2ccc(F)cc2)C(C)c2nc3ccccc3c(=O)n2N2CCN(C(=O)CN3CCC(O)C3)CC2)c(OC)c1 (stereo not drawn) [Compound 144] | > 32 | 32 µg/mL | > 32 | 2 |
| COc1ccc(N(C(=O)Nc2ccc(F)cc2)C(C)c2nc3ccccc3c(=O)n2N2CCN(C(=O)CN3CCCCC3)CC2)c(OC)n1 (stereo not drawn) [Compound 145] | > 32 | 2 µg/mL | > 32 | 0.5 |
| COc1ccc(N(C(=O)Nc2ccc(F)cc2)C(C)c2nc3ccccc3c(=O)n2N2CCN(C(=O)CN3CCSCC3)CC2)c(OC)c1 (stereo not drawn) [Compound 146] | > 32 | 0.25 µg/mL | > 32 | 0.25 |
| COc1ccc(N(C(=O)Nc2ccc(F)cc2)C(C)c2nc3ccccc3c(=O)n2N2CCN(C(=O)CN3CCC(O)CC3)CC2)c(OC)c1 (stereo not drawn) [Compound 147] | > 32 | 16 µg/mL | > 32 | 2 |
| COc1ccc(N(C(=O)Nc2ccc(F)cc2)C(C)c2nc3ccccc3c(=O)n2N2CCN(C(=O)Cn3ccc(=O)cc3)CC2)c(OC)c1 (stereo not drawn) [Compound 148] | > 32 | 32 µg/mL | > 32 | 16 |
| COc1ccc(N(C(=O)Nc2ccc(Cl)cc2)C(C)c2nc3ccccc3c(=O)n2N2CCN(CCCC(=O)NS(C)(=O)=O)CC2)c(OC)c1 (stereo not drawn) [Compound 151] | > 32 | 32 µg/mL | > 32 | 32 |
| COCCOCC(=O)N1CCN(n2c(C(C)N(C(=O)Nc3ccc(F)cc3)c3ccc(OC)cc3OC)nc3ccccc3c2=O)CC1 (stereo not drawn) [Compound 152] | > 32 | 0.5 µg/mL | > 32 | 0.5 |
| COCCOCCOCC(=O)N1CCN(n2c(C(C)N(C(=O)Nc3ccc(F)cc3)c3ccc(OC)cc3OC)nc3ccccc3c2=O)CC1 (stereo not drawn) [Compound 153] | > 32 | 2 µg/mL | > 32 | 1 |
| COCCOCC(=O)N1CCN(n2c(C(C)N(C(=O)Nc3ccc(F)cc3)c3ccc(OC)nc3OC)nc3ccccc3c2=O)CC1 (stereo not drawn) [Compound 154] | > 32 | 2 µg/mL | > 32 | 1 |
| COc1ccc(N(C(=O)Nc2ccc(F)cc2)C(C)c2nc3ccccc3c(=O)n2N2CCN(C(=O)Cc3c[nH]cn3)CC2)c(OC)c1 (stereo not drawn) [Compound 155] | > 32 | 8 µg/mL | > 32 | 1 |
| COc1ccc(N(C(=O)Nc2ccc(F)cc2)C(C)c2nc3ccccc3c(=O)n2N2CCN(C(=O)[C@@H]3CCCN3)CC2)c(OC)n1 (stereo partly drawn) [Compound 157] | > 32 | 16 µg/mL | > 32 | 4 |
| COc1ccc(N(C(=O)Nc2ccc(F)cc2)C(C)c2nc3cc(F)c(F)cc3c(=O)n2N2CCN(C(=O)[C@@H]3CCCN3)CC2)c(OC)c1 (stereo partly drawn) [Compound 158] | > 32 | 16 µg/mL | > 32 | 2 |
| COc1ccc(N(C(=O)Nc2ccc(F)cc2)C(C)c2nc3cc(F)ccc3c(=O)n2N2CCN(C(=O)Cc3c[nH]cn3)CC2)c(OC)c1 (stereo not drawn) [Compound 161] | > 32 | 32 µg/mL | > 32 | 4 |
| COc1ccc(N(C(=O)Nc2ccc(F)cc2)C(C)c2nc3ccccc3c(=O)n2N2CCN(C(=O)Cc3cn(C)cn3)CC2)c(OC)c1 (stereo not drawn) [Compound 162] | > 32 | 1 µg/mL | > 32 | 0.5 |
| COc1ccc(N(C(=O)Nc2ccc(F)cc2)C(C)c2nc3ccccc3c(=O)n2N2CCN(C(=O)CCNC(=O)OC(C)(C)C)CC2)c(OC)c1 (stereo not drawn) [Compound 163] | > 32 | 2 µg/mL | > 32 | 2 |

| SMILES | MIC [1] [µg/mL] | MPC8 = concentration of efflux pump inhibitor necessary to reduce the fluconazole MIC 8-fold [1] | MIC [2] [µg/mL] | MPC8 [2] [µg/mL] |
| --- | --- | --- | --- | --- |
| COc1ccc(N(C(=O)Nc2ccc(F)cc2)C(C)c2nc3ccccc3c(=O)n2N2CCN(C(=O)[C@H](C)NC(=O)OC(C)(C)C)CC2)c(OC)c1 (stereo partly drawn) [Compound 164] | > 32 | 2 µg/mL | > 32 | 1 |
| COc1ccc(N(C(=O)Nc2ccc(F)cc2)C(C)c2nc3ccccc3c(=O)n2N2CCN(C(=O)[C@H](CO)NC(=O)OC(C)(C)C)CC2)c(OC)c1 (stereo partly drawn) [Compound 165] | > 32 | 4 µg/mL | > 32 | 2 |
| COc1ccc(N(C(=O)Nc2ccc(F)cc2)C(C)c2nc3ccccc3c(=O)n2N2CCN(C(=O)CN(C)C(=O)OC(C)(C)C)CC2)c(OC)c1 (stereo not drawn) [Compound 166] | > 32 | 1 µg/mL | > 32 | 0.5 |
| COc1ccc(N(C(=O)Nc2ccc(F)cc2)C(C)c2nc3ccccc3c(=O)n2N2CCN(C(=O)C[C@@H]3CCCN3C(=O)OC(C)(C)C)CC2)c(OC)c1 (stereo partly drawn) [Compound 167] | > 32 | 2 µg/mL | > 32 | 2 |
| COc1ccc(N(C(=O)Nc2ccc(F)cc2)C(C)c2nc3ccccc3c(=O)n2N2CCN(C(=O)C3CCN(C(=O)OC(C)(C)C)CC3)CC2)c(OC)c1 (stereo not drawn) [Compound 168] | > 32 | 8 µg/mL | > 32 | 4 |
| COc1ccc(N(C(=O)Nc2ccc(F)cc2)C(C)c2nc3ccccc3c(=O)n2N2CCN(C3=NCCO3)CC2)c(OC)c1 (stereo not drawn) [Compound 173] | > 32 | 16 µg/mL | > 32 | 2 |
| COc1ccc(N(C(=O)Nc2cccc(Cl)c2)C(C)c2nc3ccccc3c(=O)n2N2CCN(C(N)=O)CC2)c(OC)c1 (stereo not drawn) [Compound 174] | > 32 | 0.5 µg/mL | > 32 | 8 |
| C=CS(=O)(=O)N1CCN(n2c(C(C)N(C(=O)Nc3ccc(F)cc3)c3ccc(OC)cc3OC)nc3ccccc3c2=O)CC1 (stereo not drawn) [Compound 175] | > 32 | ≦0.03 μg/ml | > 32 | 1 |
| COc1ccc(N(C(=O)Nc2ccc(F)cc2)C(C)c2nc3ccccc3c(=O)n2N2CCN(CCCC(=O)NS(=O)(=O)c3ccccc3)CC2)c(OC)c1 (stereo not drawn) [Compound 179] | > 32 | 32 µg/mL | > 32 | 16 |
| COc1ccc(N(C(=O)Nc2ccc(F)cc2)C(C)c2nc3ccccc3c(=O)n2N2CCN(CCCC(=O)NS(C)(=O)=O)CC2)c(OC)c1 (stereo not drawn) [Compound 180] | > 32 | 32 µg/mL | > 32 | 16 |
| COc1ccc(N(C(=O)Nc2ccc(F)cc2)C(C)c2nc3ccccc3c(=O)n2N2CCN(CCCC(=O)NC#N)CC2)c(OC)c1 (stereo not drawn) [Compound 181] | > 32 | 32 µg/mL | > 32 | 16 |
| COc1ccc(N(C(=O)Nc2ccc(F)cc2)C(C)c2nc3ccccc3c(=O)n2N2CCN(C(=O)CN3CCN(C=O)CC3)CC2)c(OC)c1 (stereo not drawn) [Compound 191] | > 32 | 8 µg/mL | > 32 | 2 |
| COC(=O)N(C)CC(=O)N1CCN(n2c(C(C)N(C(=O)Nc3ccc(F)cc3)c3ccc(OC)cc3OC)nc3ccccc3c2=O)CC1 (stereo not drawn) [Compound 192] | > 32 | 1 µg/mL | > 32 | 0.5 |
| COC(=O)N[C@@H](C)C(=O)N1CCN(n2c(C(C)N(C(=O)Nc3ccc(F)cc3)c3ccc(OC)cc3OC)nc3ccccc3c2=O)CC1 (stereo partly drawn) [Compound 193] | > 32 | 2 µg/mL | > 32 | 0.25 |
| COc1ccc(N(C(=O)Nc2ccc(F)cc2)C(C)c2nc3ccccc3c(=O)n2N2CCN(S(=O)(=O)CCN3CCCC3)CC2)c(OC)c1 (stereo not drawn) [Compound 194] | > 32 | 0.5 µg/mL | > 32 | 2 |
| COc1ccc(N(C(=O)Nc2ccc(F)cc2)C(C)c2nc3ccccc3c(=O)n2C2CCNCC2)c(OC)c1 (stereo not drawn) [Compound 195] | > 32 | 32 µg/mL | > 32 | 32 |
